Anti-infective test results gathered from many reports (values: NIAID ChemDB through PubChem).

Shared fields: growth or infection tests; species: Mycobacterium avium; endpoint: MIC90

Blank or dashed fields: not listed here. A number after MIC or MFC names an inhibition level or a share of isolates. Rows are shuffled and stem from different studies.

compound,strain,read by,value
CC[C@H]1OC(=O)[C@H](C)[C@@H](O[C@H]2C[C@@](C)(OC)[C@@H](O)[C@H](C)O2)[C@H](C)[C@@H](O[C@@H]2O[C@H](C)C[C@H](N(C)C)[C@H]2O)[C@](C)(OC)C[C@@H](C)C(=O)[C@H](C)[C@@H](O)[C@]1(C)O,36 strains,-,25 µg/mL
C=CCS/C(N)=N\N=C\c1ccc(F)cc1,Clinical isolates,-,12.5 µg/mL
CC(=O)NC[C@H]1CN(c2ccc3c(c2)Oc2ccccc2O3)C(=O)O1,-,broth dilution / visual reading,>64 µg/mL
N/C(=N\NC(CC(=O)c1ccc(Cl)c(Cl)c1)c1ccccn1)c1ccccn1,17 strains,-,32 µg/mL
O[C@@H](c1cc(C(F)(F)F)nc2c(C(F)(F)F)cccc12)C1CCCCN1,MAC 101,broth dilution / radiometric,32 µg/mL
O=C(O)c1cn(C2CC2)c2cc(N3CCN(c4ccccc4)CC3)c(F)cc2c1=O,-,-,>16 µg/mL
O=c1cc(-c2ccccc2)c2ccc(Cl)cc2o1,ATCC 15769,resazurin,>100 µg/mL
Cc1ccc(C(=O)CC(N/N=C(\N)c2ccccn2)c2ccccn2)cc1,17 strains,-,160 µg/mL
NC[C@H]1O[C@H](O[C@H]2[C@H](O)[C@@H](O[C@H]3O[C@H](CO)[C@@H](O)[C@H](N)[C@H]3O)[C@H](N)C[C@@H]2N)[C@H](O)[C@@H](O)[C@@H]1O,100 strains,-,9.15 µg/mL
O[C@@H](c1cc(C(F)(F)F)nc2c(C(F)(F)F)cccc12)[C@@H]1CCCCN1,MAC 101,broth dilution / radiometric,64 µg/mL
CCCCCC#Cc1cn([C@H]2C[C@H](O)[C@@H](CO)O2)c(=O)[nH]c1=O,-,-,>100 µg/mL
Cc1ccc(C(=O)CC(N/N=C(\N)c2ccccn2)c2cccnc2)cc1,17 strains,-,320 µg/mL
NNC(=O)c1ccncc1,36 strains,-,100 µg/mL
Cc1ccc(C(=O)CC(N/N=C(\N)c2ccccn2)c2ccncc2)cc1,17 strains,-,320 µg/mL
CC1COc2c(N3CCN(C)CC3)c(F)cc3c(=O)c(C(=O)O)cn1c23,18 strains,-,50 µg/mL
Cc1c(F)c(N2CCNC(C)C2)cc2c1c(=O)c(C(=O)O)cn2C1CC1,36 strains,-,12.5 µg/mL
O[C@H](c1cc(C(F)(F)F)nc2c(C(F)(F)F)cccc12)C1CCCCN1,MAC 101,broth dilution / radiometric,32 µg/mL
CCCCCCCCCCCCC#Cc1cn([C@H]2C[C@H](O)[C@@H](CO)O2)c(=O)[nH]c1=O,-,-,>100 µg/mL
N/C(=N\NC(CC(=O)c1cccc(Br)c1)c1ccccn1)c1ccccn1,17 strains,-,80 µg/mL
O=C(O)c1cn(C2CC2)c2cc(N3CCN(Cc4ccccc4)CC3)c(F)cc2c1=O,-,-,>16 µg/mL
N/C(=N\NC(CC(=O)c1ccc(Cl)c(Cl)c1)c1ccncc1)c1ccccn1,17 strains,-,32 µg/mL
CC1COc2c(N3CCN(C)CC3)c(F)cc3c(=O)c(C(=O)O)cn1c23,ATCC 15769,-,>100 µg/mL